Compound potency records, mixed from different reports. Data source: NIAID ChemDB in PubChem.

All rows: whole-cell or culture tests; organism: Staphylococcus aureus; measure: MIC

Two numbers with a dash give a range or band.

{"smiles": "CS(=O)(=O)N[C@@H]1CCN(c2ccc(N3C[C@H](COc4ccon4)OC3=O)cc2F)C1", "strain": "004 (methicillin quinolone-resistant)", "value": "1 µg/mL"}
{"smiles": "CC(=O)NC[C@H]1CN(c2ccc(-c3ccn(C)n3)c(F)c2)C(=O)O1", "strain": "UC6685 (methicillin-resistant)", "value": "4 µg/mL"}
{"smiles": "CCCC[C@H](CC(=O)NO)C(=O)N1CCC[C@H]1C(=O)NC", "strain": "3 strains", "value": "2–8 µg/mL"}
{"smiles": "CC[C@H]1OC(=O)C[C@@H](O)[C@H](C)[C@@H](O[C@@H]2O[C@H](C)[C@@H](O)[C@H](N(C)C)[C@H]2O)C(C=O)C[C@@H](C)C(=O)/C=C/C(C)=C/[C@@H]1COC", "strain": "25923 (erythromycin-susceptible)", "value": "0.5 µg/mL"}
{"smiles": "Clc1cccc2c1NC(c1c[nH]c3ccc(Br)cc13)C1CCOC21", "strain": "Methicillin-resistant", "value": "0.31 µg/mL"}
{"smiles": "CC(=O)NC[C@H]1CN(c2ccc(-c3cncs3)c(F)c2)C(=O)O1", "strain": "UC6685 (methicillin-resistant)", "value": "0.5 µg/mL"}
{"smiles": "Clc1ccc2nc(-c3c[nH]c4ccc(Br)cc34)ccc2c1", "strain": "Methicillin-resistant", "value": "0.6 µg/mL"}
{"smiles": "CCCCCCCCCCCC[N+](C)(C)COCC(C)CC", "strain": "ATCC 6538", "value": "4.29 µM"}
{"smiles": "CC(=O)NC[C@H]1CN(c2ccc(N3CCN(C(=O)CO)CC3)c(F)c2)C(=O)O1", "strain": "UC9213", "value": "4 µg/mL"}
{"smiles": "CN[C@@H]1CN(c2c(F)cn3c(=O)c(C(=O)O)cc(C4CC4)c3c2C)C[C@@H]1C", "strain": "NCTC 10649M", "value": "0.02 µg/mL"}
{"smiles": "CC[C@H]1OC(=O)C[C@@H](O)[C@H](C)[C@@H](O[C@@H]2O[C@H](C)[C@@H](O)[C@H](N(C)C)[C@H]2O)C(C=O)C[C@@H](C)C(=O)/C=C/C(C)=C/[C@@H]1COCOCc1ccccc1", "strain": "25923 (erythromycin-susceptible)", "value": "0.25 µg/mL"}
{"smiles": "COc1c(-c2ccc3c(c2)CNC3)c(F)cc2c(=O)c(C(=O)O)cn(C3CC3)c12", "strain": "FDA209P", "value": "0.0156 µg/mL"}
{"smiles": "Cc1c(N2C[C@H](N)[C@H](C3CC3)C2)c(F)cn2c(=O)c(C(=O)O)cc(C3CC3)c12", "strain": "NCTC 10649M", "value": "0.02 µg/mL"}
{"smiles": "CCCCCCCCCCCC[N+](C)(C)COCCCCC", "strain": "ATCC33592", "value": "3.43 µM"}
{"smiles": "CC[C@H]1OC(=O)C[C@@H](O)[C@H](C)[C@@H](O[C@@H]2O[C@H](C)[C@@H](O)[C@H](N(C)C)[C@H]2O)C(C=O)C[C@@H](C)C(=O)/C=C/C(C)=C/[C@@H]1COC(=O)Nc1ccc(F)cc1", "strain": "25923 (erythromycin-susceptible)", "value": "0.5 µg/mL"}
{"smiles": "O=C(O)c1cn(C2CC2)c2c(OC(F)F)c(-c3ccc4c(c3)CNC4)ccc2c1=O", "strain": "FDA209P", "value": "0.0625 µg/mL"}
{"smiles": "CCCCCCCCCCCC[N+](C)(C)COC1CCCC1", "strain": "ATCC33592", "value": "2.87 µM"}
{"smiles": "O=C(O)c1cn(C2CC2)c2cc(-c3ccc4c(c3)CNC4)c(F)cc2c1=O", "strain": "FDA209P", "value": "0.0313 µg/mL"}
{"smiles": "C[C@@H]1N[C@@H]2C[C@H]1N(c1nc3c(cc1F)c(=O)c(C(=O)O)cn3C(C)(C)C)C2", "strain": "A9537", "value": "0.03 µg/mL"}
{"smiles": "CCCCCCCCCCCC[N+](C)(C)COCCC(C)CCCC(C)C", "strain": "ATCC 6538", "value": "11.9 µM"}
{"smiles": "CCOC(=O)c1nc(-c2ccc(N3C[C@H](CNC(C)=O)OC3=O)cc2F)ns1", "strain": "UC6685 (methicillin-resistant)", "value": ">16 µg/mL"}
{"smiles": "CC[C@H]1OC(=O)C[C@@H](O)[C@H](C)[C@@H](O[C@@H]2O[C@H](C)[C@@H](O)[C@H](N(C)C)[C@H]2O)C(C=O)C[C@@H](C)C(=O)/C=C/C(C)=C/[C@@H]1COCc1ccccc1", "strain": "25923 (erythromycin-susceptible)", "value": "0.13 µg/mL"}
{"smiles": "COc1c(CN(C)C)cccc1C1OC(c2ccncc2)=NN1C(C)=Nc1ccccc1F", "strain": "MTCC96", "value": "50 µg/mL"}
{"smiles": "Cc1c(N2C[C@@H](N)[C@@H](C3CC3)C2)c(F)cn2c(=O)c(C(=O)O)cc(C3CC3)c12", "strain": "NCTC 10649M", "value": "0.02 µg/mL"}
{"smiles": "Nc1cn(-c2ccc(N3C[C@H](COc4ccccn4)OC3=O)cc2F)cn1", "strain": "122 (novobiocin-resistant)", "value": "4 µg/mL"}
{"smiles": "COc1c(N2CCNC(C)C2)c(F)cc2c(=O)c(C(=O)O)cn(C3CC3)c12", "strain": "209P", "value": "0.05 µg/mL"}
{"smiles": "CC(=O)NC[C@H]1CN(c2ccc(-c3cc(CO)on3)c(F)c2)C(=O)O1", "strain": "UC9213 (methicillin-susceptible)", "value": "2 µg/mL"}
{"smiles": "COC(=O)N1CCN(c2ccc(N3C[C@H](COc4ccon4)OC3=O)cc2F)CC1", "strain": "122 (novobiocin-resistant)", "value": "4 µg/mL"}
{"smiles": "COc1c(-c2ccc3c(c2)CNC3)ccc2c(=O)c(C(=O)O)cn(C3CC3)c12", "strain": "FDA209P", "value": "0.0313 µg/mL"}
{"smiles": "CCCCCCCCCCCC[N+](C)(C)COCC", "strain": "ATCC33592", "value": "4.87 µM"}
{"smiles": "COc1c(-c2ccc3c(c2)C(C)NC3)c(F)cc2c(=O)c(C(=O)O)cn(C3CC3)c12", "strain": "FDA209P", "value": "0.0156 µg/mL"}
{"smiles": "C=CCNC(=O)OC[C@H]1/C=C(C)/C=C/C(=O)[C@H](C)CC(C=O)[C@H](O[C@@H]2O[C@H](C)[C@@H](O)[C@H](N(C)C)[C@H]2O)[C@@H](C)[C@H](O)CC(=O)O[C@@H]1CC", "strain": "25923 (erythromycin-susceptible)", "value": "0.5 µg/mL"}
{"smiles": "CCCCCCCCCCCC[N+](C)(C)CSCCCCCCCC", "strain": "ATCC33592", "value": "12.1 µM"}
{"smiles": "CC1NCc2ccc(-c3c(F)cc4c(=O)c(C(=O)O)cn(C5CC5)c4c3OC(F)F)cc21", "strain": "FDA209P", "value": "0.125 µg/mL"}
{"smiles": "CC[C@H]1OC(=O)C[C@@H](O)[C@H](C)[C@@H](O[C@@H]2O[C@H](C)[C@@H](O)[C@H](N(C)C)[C@H]2O)C(C=O)C[C@@H](C)C(=O)/C=C/C(C)=C/[C@@H]1COC(=O)NCc1ccccc1", "strain": "25923 (erythromycin-susceptible)", "value": "0.5 µg/mL"}
{"smiles": "CCCCCCCCCCCC[N+](C)(C)CSCCCCC", "strain": "ATCC33592", "value": "13.7 µM"}
{"smiles": "C=C1COC2[C@@H](C)/C(=N/OCOC)[C@H](C)C[C@@](C)(OC1)[C@H](O[C@@H]1O[C@H](C)C[C@H](N(C)C)[C@H]1O)[C@@H](C)C(=O)[C@@H](C)C(=O)O[C@H](CC)[C@@]2(C)O", "strain": "33591 (erythromycin methicillin-resistant)", "value": ">64 µg/mL"}
{"smiles": "COc1c(-c2ccc3c(c2)C(C)NC3)ccc2c(=O)c(C(=O)O)cn(C3CC3)c12", "strain": "FDA209P", "value": "0.0625 µg/mL"}

A second listing of 4 rows from above:

{"smiles": "COc1c(-c2ccc3c(c2)C(C)NC3)c(F)cc2c(=O)c(C(=O)O)cn(C3CC3)c12", "strain": "FDA209P", "value": "0.0156 µg/mL"}
{"smiles": "C=CCNC(=O)OC[C@H]1/C=C(C)/C=C/C(=O)[C@H](C)CC(C=O)[C@H](O[C@@H]2O[C@H](C)[C@@H](O)[C@H](N(C)C)[C@H]2O)[C@@H](C)[C@H](O)CC(=O)O[C@@H]1CC", "strain": "25923 (erythromycin-susceptible)", "value": "0.5 µg/mL"}
{"smiles": "CCOC(=O)c1nc(-c2ccc(N3C[C@H](CNC(C)=O)OC3=O)cc2F)ns1", "strain": "UC6685 (methicillin-resistant)", "value": ">16 µg/mL"}
{"smiles": "CC[C@H]1OC(=O)C[C@@H](O)[C@H](C)[C@@H](O[C@@H]2O[C@H](C)[C@@H](O)[C@H](N(C)C)[C@H]2O)C(C=O)C[C@@H](C)C(=O)/C=C/C(C)=C/[C@@H]1COC", "strain": "25923 (erythromycin-susceptible)", "value": "0.5 µg/mL"}

Rows are shuffled and stem from different studies.